{
  "sequences": {"note": "Sequences of proteins named here, by UniProt entry; tags and fusion partners are left off. A change or cut given only in a name is not applied to a line headed by its entry.", "UniProt P0DPI0": "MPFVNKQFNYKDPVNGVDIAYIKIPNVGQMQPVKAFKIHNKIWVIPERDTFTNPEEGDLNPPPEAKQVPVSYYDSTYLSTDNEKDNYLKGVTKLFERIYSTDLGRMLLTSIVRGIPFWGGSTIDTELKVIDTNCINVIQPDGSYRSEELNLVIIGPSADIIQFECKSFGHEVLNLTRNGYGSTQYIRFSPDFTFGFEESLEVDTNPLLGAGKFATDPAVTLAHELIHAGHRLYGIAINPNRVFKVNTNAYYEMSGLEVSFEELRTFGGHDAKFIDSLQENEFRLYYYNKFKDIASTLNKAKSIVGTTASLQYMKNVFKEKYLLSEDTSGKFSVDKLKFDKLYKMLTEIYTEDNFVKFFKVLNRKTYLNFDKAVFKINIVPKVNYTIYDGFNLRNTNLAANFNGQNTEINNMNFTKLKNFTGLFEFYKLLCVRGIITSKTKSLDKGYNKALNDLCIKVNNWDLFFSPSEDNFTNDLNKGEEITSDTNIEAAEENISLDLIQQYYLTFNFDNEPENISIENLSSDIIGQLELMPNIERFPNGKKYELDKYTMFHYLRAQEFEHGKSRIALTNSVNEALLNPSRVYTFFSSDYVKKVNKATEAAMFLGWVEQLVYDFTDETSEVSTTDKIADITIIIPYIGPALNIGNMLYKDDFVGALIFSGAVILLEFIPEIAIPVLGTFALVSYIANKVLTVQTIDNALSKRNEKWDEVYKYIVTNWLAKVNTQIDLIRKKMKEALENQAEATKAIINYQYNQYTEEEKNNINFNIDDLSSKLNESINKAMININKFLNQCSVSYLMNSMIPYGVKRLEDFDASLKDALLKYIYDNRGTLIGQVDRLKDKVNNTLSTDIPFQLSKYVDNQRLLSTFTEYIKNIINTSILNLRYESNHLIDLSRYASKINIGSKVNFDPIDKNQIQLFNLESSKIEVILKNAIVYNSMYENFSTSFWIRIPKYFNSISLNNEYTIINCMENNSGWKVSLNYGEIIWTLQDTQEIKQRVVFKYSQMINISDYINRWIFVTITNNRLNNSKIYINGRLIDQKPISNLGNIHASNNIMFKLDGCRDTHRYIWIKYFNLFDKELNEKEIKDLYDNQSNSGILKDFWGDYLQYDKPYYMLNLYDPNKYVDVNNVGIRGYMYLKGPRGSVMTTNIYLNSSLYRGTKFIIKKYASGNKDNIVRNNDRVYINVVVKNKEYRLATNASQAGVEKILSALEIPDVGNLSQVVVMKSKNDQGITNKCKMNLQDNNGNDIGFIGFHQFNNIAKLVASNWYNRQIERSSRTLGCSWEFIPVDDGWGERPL"},
  "source": "patent US9284595B2",
  "about": "(priority 2012, dated 2016)",
  "target": "BoNT/A Holotoxin (Clostridium botulinum, UniProt P0DPI0)",
  "assay": "BoNT/A Holotoxin detection assay with TCEP, FilterMax F5",
  "type": "biochemical",
  "settings": "1 μM substrate, 5 ng Holotoxin",
  "data": [
    {"substance": "MDENLEQVSGIIGNLRHMALDMGNEIDTQNRQIDRIMEKADSN(KDabcyl)TRIDEANQRATKML(K5Fam)", "values": [
      {"measurement": "detection of BoNT/A Holotoxin without TCEP", "setting": "no TCEP", "value": "unable to detect BoNT/A Holotoxin"},
      {"measurement": "detection of BoNT/A Holotoxin with TCEP", "setting": "varying concentrations of TCEP", "value": "detection of 5.0 ng BoNT A Holotoxin Complex"}
    ]}
  ]
}
